Test results from ChEMBL document CHEMBL1275403 (J Med Chem, 2010).

Experiment: Cytotoxicity against mouse ScGT1 cells assessed as cell viability at 1 uM after 5 days by calcein-AM assay
Format: cell-based
Conditions: scgt1, 120 h
Method in brief: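 ScGT1 cells in DMEM with 10% FBS were plated at 25000 cells/well. Compounds were dissolved in DMSO, diluted in PBS and added at 10 nM–10 μM. Cells were incubated 5 days at 37 °C, 5% CO2. Viability was read by calcein-AM fluorescence as average percent viable cells versus untreated control. Values are mean of three experiments with SD.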

O=C1C=C(NCCCNc2c3c(nc4ccccc24)CCCC3)C(=O)C=C1NCCCNc1c2c(nc3ccccc13)CCCC2
Activity: 104%
